Data as given in PubChem BioAssay AID504761 (Drosophila RNAi Screening Center, 2011).
Purpose: 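Insect host genes that dengue virus relies on to spread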 (primary screen). Cell system: D.Mel-2 cells from Drosophila. Reagents: long dsRNA against Drosophila genes. Treatment: infection with dengue virus type 2; dose and infection time not stated. Detection: 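Cells stained for dengue envelope protein and imaged; percent of infected cells per well on duplicate plates, ranked by infection, with stained nuclei counted for cell number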. Scale: infection score: higher = more virus-infected cells; cell count: higher = more cells in the well. Hit rule: 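Low infection ranks in the two replicates (chance level up to 0.065) followed by a retest with a 1.5-fold or larger significant decrease, p below 0.05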. Calls: active = confirmed: knock-down lowers infection; inactive = not picked or not confirmed.
The deposit covers about 22,000 reagents; shown is an unselected part of those with a known target gene and a result. In the full data, 116 (0.52%) were called active. 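Calls depend on retest data that are not deposited; infection was ranked per plate without normalising between plates; the unit of the infection score is not given.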 Raw values are not corrected between plates. The numbers tell different reagents against one gene apart. Names joined by + are all predicted targets of the reagent. The record does not give: the amount of reagent, the time to read-out.

CG15635 (GeneID 33665) #1 | infection score, replicate 1: 3.99; infection score, replicate 2: 5.84; cell count, replicate 1: 6245; cell count, replicate 2: 6286; call: inactive
CG15635 (GeneID 33665) #2 | infection score, replicate 1: 1.41; infection score, replicate 2: 2.71; cell count, replicate 1: 6252; cell count, replicate 2: 6376; call: inactive
YL-1 (GeneID 34516) #1 | infection score, replicate 1: 2.03; infection score, replicate 2: 2.65; cell count, replicate 1: 6264; cell count, replicate 2: 6576; call: inactive
YL-1 (GeneID 34516) #2 | infection score, replicate 1: 2.88; infection score, replicate 2: 4.43; cell count, replicate 1: 5517; cell count, replicate 2: 5011; call: inactive
CG11438 (GeneID 40469) | infection score, replicate 1: 10.1; infection score, replicate 2: 4.8; cell count, replicate 1: 6538; cell count, replicate 2: 6611; call: inactive
eIF2Bepsilon (GeneID 31156) | infection score, replicate 1: 7.31; infection score, replicate 2: 4.77; cell count, replicate 1: 5526; cell count, replicate 2: 440; call: inactive
CG3868 (GeneID 39580) | infection score, replicate 2: 11.6; cell count, replicate 1: 286; cell count, replicate 2: 6328; call: inactive
lncRNA:iab4 (GeneID 3772110) #1 | infection score, replicate 1: 3.16; infection score, replicate 2: 4.07; cell count, replicate 1: 5979; cell count, replicate 2: 6737; call: inactive
lncRNA:iab4 (GeneID 3772110) #2 | infection score, replicate 1: 1.82; infection score, replicate 2: 4.54; cell count, replicate 1: 6194; cell count, replicate 2: 6326; call: inactive
Est-P (GeneID 39393) | infection score, replicate 1: 1.3; infection score, replicate 2: 1.4; cell count, replicate 1: 6629; cell count, replicate 2: 6225; call: inactive

Taken from above.
CG15635 (GeneID 33665) #2, call → inactive
Value of YL-1 (GeneID 34516) #1 in “infection score, replicate 2”: 2.65
For “cell count, replicate 1”, Est-P (GeneID 39393) has 6629

Further reagents:
ash2 (GeneID 42936) | infection score, replicate 1: 4.21; infection score, replicate 2: 13.8; cell count, replicate 1: 6751; cell count, replicate 2: 7042; call: inactive
rdgBbeta (GeneID 37011) | infection score, replicate 1: 20.9; infection score, replicate 2: 11.4; cell count, replicate 1: 6250; cell count, replicate 2: 7054; call: inactive
Gart (GeneID 33986) #1 | infection score, replicate 1: 10.1; cell count, replicate 1: 2500; cell count, replicate 2: 547; call: inactive
Gart (GeneID 33986) #2 | infection score, replicate 1: 14.9; infection score, replicate 2: 8.62; cell count, replicate 1: 5159; cell count, replicate 2: 6823; call: inactive
Nepl20 (GeneID 43412) | infection score, replicate 1: 10.7; infection score, replicate 2: 9.33; cell count, replicate 1: 3695; cell count, replicate 2: 7246; call: inactive
Ccdc58 + CG34116 | infection score, replicate 1: 2.56; infection score, replicate 2: 7.72; cell count, replicate 1: 6408; cell count, replicate 2: 6125; call: inactive
antr (GeneID 246647) | infection score, replicate 1: 1.12; infection score, replicate 2: 4.13; cell count, replicate 1: 6072; cell count, replicate 2: 6779; call: inactive
Sgs1 (GeneID 33701) | infection score, replicate 1: 14.1; infection score, replicate 2: 0.41; cell count, replicate 1: 6049; cell count, replicate 2: 730; call: inactive
CG7362 (GeneID 41787) #1 | infection score, replicate 1: 1.83; infection score, replicate 2: 5.85; cell count, replicate 1: 5694; cell count, replicate 2: 6338; call: inactive
CG7362 (GeneID 41787) #2 | infection score, replicate 1: 21.4; infection score, replicate 2: 14.3; cell count, replicate 1: 5895; cell count, replicate 2: 5888; call: inactive
CG11756 (GeneID 32074) #1 | infection score, replicate 1: 4.57; infection score, replicate 2: 1.58; cell count, replicate 1: 6517; cell count, replicate 2: 6570; call: inactive
CG11756 (GeneID 32074) #2 | infection score, replicate 1: 4.21; infection score, replicate 2: 3.51; cell count, replicate 1: 5815; cell count, replicate 2: 5634; call: inactive
